Measured values from several laboratories, pooled; numbers as filed in NIAID ChemDB.

All rows: enzyme or target tests

ICn: concentration for n% inhibition.

{"compound": "O=C(Nc1ccc(Cl)cc1)c1cc(O)c2ccccc2c1O", "read-out": "IC50", "agent": "Human cytomegalovirus", "target": "HCMV DNA polymerase", "result": "14.4 µM"}
{"compound": "Nc1nc2c(ncn2CC[C@H](O)COP(=O)(O)OP(=O)(O)OP(=O)(O)O)c(=O)[nH]1", "read-out": "IC50", "agent": "Human cytomegalovirus", "strain or isolate": "AD169", "target": "DNA polymerase", "result": ">150 µM"}
{"compound": "O=C(CCCCCl)Nc1nnc(NCC(c2ccccc2)c2ccccc2)s1", "read-out": "IC50", "agent": "Human cytomegalovirus", "target": "Polymerase", "result": ">25 µM"}
{"compound": "O=C(Nc1cccc(F)c1)c1cc2ccccc2cc1O", "read-out": "IC50", "agent": "Human cytomegalovirus", "target": "HCMV DNA polymerase", "result": ">100 µM"}
{"compound": "Cc1ccc(/C(N)=N\\OC(=O)c2cccc3ccccc23)cc1Cl", "read-out": "IC50", "agent": "Human cytomegalovirus", "target": "Polymerase", "method": "scintillation proximity / radiometric", "result": ">100 µM"}
{"compound": "O=c1[nH]c(=O)n([C@H]2C[C@H](O)[C@@H](COP(=O)(O)OP(=O)(O)OP(=O)(O)O)O2)cc1/C=C/Br", "read-out": "IC50", "agent": "Human herpesvirus 6", "strain or isolate": "Z29 (TYPE 6B)", "target": "DNA polymerase", "result": "2.88 µM"}
{"compound": "O=C(O)CP(=O)(O)O", "read-out": "inhibition", "tested at": "5 µg/mL", "agent": "Human herpesvirus 6", "strain or isolate": "TYPE 6", "target": "DNA polymerase", "result": "58.9%"}
{"compound": "Oc1ccccc1C=NCCN=Cc1ccccc1O", "read-out": "IC50", "agent": "Human cytomegalovirus", "target": "Proteinase", "result": ">372 µM"}
{"compound": "N/C(=N/OC(=O)c1cccc2ccccc12)c1cc(Cl)ccc1Cl", "read-out": "IC50", "agent": "Human cytomegalovirus", "target": "Polymerase", "method": "scintillation proximity / radiometric", "result": "15 µM"}
{"compound": "O=C(NCc1ccc(Cl)cc1)c1cn2c3c(cc(CN4CCOCC4)cc3c1=O)OC(c1ccccn1)C2", "read-out": "IC50", "agent": "Human cytomegalovirus", "target": "HCMV polymerase", "method": "scintillation proximity / radiometric", "result": "0.27 µM"}
{"compound": "COC(=O)[C@@H](Nc1nc2cccc(C)c2c(=O)o1)C(C)C", "read-out": "IC50", "agent": "Human cytomegalovirus", "target": "Protease", "result": "0.68 µM"}
{"compound": "Cn1cc(C(=O)NCc2ccc(Cl)cc2)c(=O)c2cc(CN3CCOCC3)ccc21", "read-out": "IC50", "agent": "Human cytomegalovirus", "strain or isolate": "AD169", "target": "DNA polymerase", "method": "scintillation proximity / radiometric", "result": "0.7 µM"}
{"compound": "O=C(Nc1nnc(NC2CCc3ccccc32)s1)c1cccc([N+](=O)[O-])c1", "read-out": "IC50", "agent": "Human cytomegalovirus", "target": "Polymerase", "result": ">25 µM"}
{"compound": "Cc1onc(-c2ccccc2)c1C(=O)O/N=C(\\N)c1ccc(Cl)cc1Cl", "read-out": "IC50", "agent": "Human cytomegalovirus", "target": "Polymerase", "method": "scintillation proximity / radiometric", "result": "0.7 µM"}
{"compound": "CC(=O)C(C(C)=O)C1=C(Cl)C(=O)c2ccccc2C1=O", "read-out": "IC50", "agent": "Human cytomegalovirus", "target": "Protease", "method": "HPLC", "result": "9.1 µM"}
{"compound": "O=C(NCc1ccc(Cl)cc1)c1c[nH]c2c(F)cccc2c1=O", "read-out": "Ki", "agent": "Human cytomegalovirus", "target": "Herpesvirus DNA polymerase", "result": "4 µM"}
{"compound": "N/C(=N/OC(=O)c1cccc2ccccc12)c1ccc(F)cc1Cl", "read-out": "IC50", "agent": "Human cytomegalovirus", "target": "Polymerase", "method": "scintillation proximity / radiometric", "result": "28.6 µM"}
{"compound": "COc1ccc2cc(O)c(C(=O)Nc3ccc(Cl)cc3)cc2c1", "read-out": "IC50", "agent": "Human cytomegalovirus", "target": "HCMV DNA polymerase", "result": ">100 µM"}
{"compound": "CCC(=NCCN=C(CC)c1ccccc1O)c1ccccc1O", "read-out": "IC50", "agent": "Human cytomegalovirus", "target": "Proteinase", "result": ">308 µM"}
{"compound": "Cc1c(CNC(=O)OC(C)(C)C)ccc2nc(NC3(C(=O)N(C)C)CC3)oc(=O)c12", "read-out": "IC50", "agent": "Human cytomegalovirus", "target": "Protease", "result": "0.81 µM"}
{"compound": "Nc1nc2c(ncn2CC[C@@H](O)COP(=O)(O)OP(=O)(O)OP(=O)(O)O)c(=O)[nH]1", "read-out": "IC50", "agent": "Human cytomegalovirus", "strain or isolate": "AD169", "target": "DNA polymerase", "result": ">150 µM"}
{"compound": "N/C(=N\\OC(=O)c1ccccc1Cl)c1ccc(Cl)cc1Cl", "read-out": "IC50", "agent": "Human cytomegalovirus", "target": "Polymerase", "method": "scintillation proximity / radiometric", "result": "10 µM"}
{"compound": "COC(=O)[C@H](Cc1ccc(OC)cc1)Nc1nc2cccc(C)c2c(=O)o1", "read-out": "IC50", "agent": "Human cytomegalovirus", "target": "Protease", "result": "0.21 µM"}
{"compound": "N/C(=N/OC(=O)c1cccc2ccccc12)c1c(Cl)cccc1Cl", "read-out": "IC50", "agent": "Human cytomegalovirus", "target": "Polymerase", "method": "scintillation proximity / radiometric", "result": "59.6 µM"}
{"compound": "CCCCCCCC/C=C/CCCCCCCC(=O)Nc1nnc(NCC(CC)CCCC)s1", "read-out": "IC50", "agent": "Human cytomegalovirus", "target": "Polymerase", "result": ">25 µM"}
{"compound": "Nc1nc2c(ncn2[C@H]2C[C@H](O)[C@@H](COP(=O)(O)OP(=O)(O)OP(=O)(O)O)O2)c(=O)[nH]1", "read-out": "Ki", "agent": "Human cytomegalovirus", "strain or isolate": "AD169", "target": "DNA polymerase", "result": "0.22 µM"}
{"compound": "CC[C@H](C)[C@H](Nc1nc2cccc(C)c2c(=O)o1)C(=O)OC", "read-out": "IC50", "agent": "Human cytomegalovirus", "target": "Protease", "result": "1.2 µM"}
{"compound": "COc1cc(OC)cc(/C(N)=N\\OC(=O)c2cccc3ccccc23)c1", "read-out": "IC50", "agent": "Human cytomegalovirus", "target": "Polymerase", "method": "scintillation proximity / radiometric", "result": "32.7 µM"}
{"compound": "O=C(CCCCCl)Nc1nnc(NCCC(c2ccccc2)c2ccccc2)s1", "read-out": "IC50", "agent": "Human cytomegalovirus", "target": "Polymerase", "result": ">25 µM"}
{"compound": "Cc1ccc(C(=O)O/N=C(\\N)c2ccc(Cl)cc2Cl)cc1", "read-out": "IC50", "agent": "Human cytomegalovirus", "target": "Polymerase", "method": "scintillation proximity / radiometric", "result": ">100 µM"}
{"compound": "COC(=O)CC1=C(Cl)C(=O)c2ccccc2C1=O", "read-out": "IC50", "agent": "Human cytomegalovirus", "target": "Protease", "method": "scintillation proximity", "result": ">150 µM"}

Percent inhibition refers to the dose given; in toxicity tests it is the harm to the cells. Conditions beyond the fields shown may differ between rows.